Laboratory results reported in patent US7968297B2, “Method for identification, isolation and production of antigens to a specific pathogen” (Intercell AG, priority 2001, dated 2011).

Key:
[1] = test system: purified IgGs from human sera; assay: Ribosome display screening with purified human IgGs; type: binding; conditions: for No. of selected clones per ORF and screen: D: Ribosome display: D; for No. of selected clones per ORF and screen: screen D: ribosome display
[2] = test system: antibodies in human serum; assay: Bacterial surface display library screening by MACS with biotinylated human serum; type: binding; conditions: for No. of selected clones per ORF and screen: A: Bacterial surface display: A, LSE150 library in fhuA with patient sera 2 (957); for No. of selected clones per ORF and screen: B: Bacterial surface display: B, LSE70 library in lamB with patient sera 2 (1420); for Location of identified Immunogenic region: ORFs selected by bacterial surface display (screens A, B, C; some also D)
[3] = LSA250/1 library with IC sera (1686)
[4] = identified by ribosome display (screen D)
[5] = ORFs selected by ribosome display only (screen D)
[6] = LSE150 in pMAL4.31 with P2 (1235)

CRF2863/1 (LCSSSLVTILKLLFCISQLFKFLIRILFTLICTFILIFSFFKFCIR)
No. of selected clones per ORF and screen: D [1, 3]: D: 78 | Location of identified Immunogenic region [1, 4]: aa 17-40

CRF0008 (RNSNQMYQTFTADIVLIFMIIVLGGLVVQVPMPILAGIMVMVSETIYCLHL)
Location of identified Immunogenic region [1, 5]: aa: 9-44 | No. of selected clones per ORF and screen: D [1, 6]: D: 4

Conserved hypothetical protein [compound 2254]
No. of selected clones per ORF and screen [1, 3]: D: 3

CRF2664 (VTNITLNSAFADATISVFLYQVRY)
No. of selected clones per ORF and screen: D [1, 3]: D: 17 | Location of identified Immunogenic region [1, 4]: aa 1-14

CRF0001 (RLRYTSYIIKLAATDAFKLLTCPTIGILI)
Location of identified Immunogenic region [1, 5]: aa 5-21 | No. of selected clones per ORF and screen: D [1, 6]: D: 3

CRFN1 (IENADDNFNQLYENAKPLKENIE)
No. of selected clones per ORF and screen: D [1, 3]: D: 4 | Location of identified Immunogenic region [1, 4]: aa 94-116

ARF0172 (QVLKMLQNILLLMLLLLMLKIKVLIYLIMTLLNQFRDMVLKLRFINNKSLWAIEN; listed as Staphylococcus epidermidis)
Location of identified Immunogenic region [1, 5]: aa 3-32 | No. of selected clones per ORF and screen: D [1, 6]: D: 6

ORF2087
No. of selected clones per ORF and screen: D [1, 3]: D: 3 | Location of identified Immunogenic region [1, 4]: aa 126-147

CRF0009 (NQRLEETISSPHHSSAL)
Location of identified Immunogenic region [1, 5]: aa 5-14 | No. of selected clones per ORF and screen: D [1, 6]: D: 3

Hypothetical protein [compound 2740]
No. of selected clones per ORF and screen [1, 3]: D: 4

CRF0337 (MLTTFAVVLIFFLLPSSFLL)
No. of selected clones per ORF and screen: D [1, 3]: D: 3 | Location of identified Immunogenic region [1, 4]: aa 1-20

CRF2553 (LIVISNVIAIILIFICFVCTIILLIIFFGFCLFMRRFIFLFLVIT)
No. of selected clones per ORF and screen: D [1, 3]: D: 4 | Location of identified Immunogenic region [1, 4]: aa 1-20

CRF2578 (RYKGKAKCISLLRMIVLFLIIAFHCNDGRRMVCKQMICIFTF)
No. of selected clones per ORF and screen: D [1, 3]: D: 11 | Location of identified Immunogenic region [1, 4]: aa 9-30

CRF0005 (FFCRLTQLNWLKYLSVRMLYMYFMIFSIMNHIVSTIC)
Location of identified Immunogenic region [1, 5]: aa: 9-33 | No. of selected clones per ORF and screen: D [1, 6]: D: 3

Hypothetical protein [compound 0337]
No. of selected clones per ORF and screen [1, 3]: D: 12

CRF0003 (RSVPHIVVLTMRIIASVLLVIVGFSLSVSCA)
Location of identified Immunogenic region [1, 5]: aa 4-31 | No. of selected clones per ORF and screen: D [1, 6]: D: 3

CRF0006 (IFISTCGCSTTSAWKAEVLPLRVRFPSPAPF)
Location of identified Immunogenic region [1, 5]: aa 10-22 | No. of selected clones per ORF and screen: D [1, 6]: D: 3

Hexose transporter [compound 2670]
No. of selected clones per ORF and screen [1, 3]: D: 16

Conserved hypothetical protein [compound 2664]
No. of selected clones per ORF and screen [1, 3]: D: 35

CRF2356 (MCRNCPAFTSCFIRDIIVKCF)
No. of selected clones per ORF and screen: D [1, 3]: D: 3 | Location of identified Immunogenic region [1, 4]: aa 3-18

CRF1845 (MLLSYFIILISFLCILLTFIYFFPLTSMTFFFYSYFRFV)
No. of selected clones per ORF and screen: D [1, 3]: D: 272 | Location of identified Immunogenic region [1, 4]: aa 1-17

ARF0183 (KRLVMQQHLQFNLPKIILLNALTKRFLSLLVTQLVMVFILVVSLLKVPVQLQ; listed as Staphylococcus epidermidis)
Location of identified Immunogenic region [1, 5]: aa 1-52 | No. of selected clones per ORF and screen: D [1, 6]: D: 4

CRF2452 (VVYNATYMHLVHVFLIVASLMLILLTNHAYALPH)
No. of selected clones per ORF and screen: D [1, 3]: D: 9 | Location of identified Immunogenic region [1, 4]: aa 7-21

CRF2207 (MTCEKLENFLTSSKAGTNDNTNKGKCHNNGLF)
No. of selected clones per ORF and screen: D [1, 3]: D: 3 | Location of identified Immunogenic region [1, 4]: aa 17-39

CRF1861 (IQRFRNKCFQTTLKWIAVLCLIYFVAITFTYTIITTMKIVIDCNYIVDINIIR)
No. of selected clones per ORF and screen: D [1, 3]: D: 8 | Location of identified Immunogenic region [1, 4]: aa 4-27

Hypothetical protease [compound 1356]
No. of selected clones per ORF and screen [1, 3]: D: 12

CRF2863/2 (LPSCLYCSTSALCLADCFCTASLALFSCAVVAWLLFLSFCSASLNCLSF)
No. of selected clones per ORF and screen: D [1, 3]: D: 78 | Location of identified Immunogenic region [1, 4]: aa 44-49

CRF1356 (LPIPSTRSAPIIPAINATMTVLNHGNLGLLYLGVWLWFVVE)
No. of selected clones per ORF and screen: D [1, 3]: D: 5 | Location of identified Immunogenic region [1, 4]: aa 5-33

CRF0538 (LSICIIIIIHAIIFVHIIKNGIQNNN)
No. of selected clones per ORF and screen: D [1, 3]: D: 7 | Location of identified Immunogenic region [1, 4]: aa 1-11

YycH protein [compound 2466]
No. of selected clones per ORF and screen [1, 3]: D: 14

CRF0007 (LKNILRIVFIAGLTVFFSGPGQTYSNAAFIDEYIQTFGWSRTEV)
Location of identified Immunogenic region [1, 5]: aa 7-44 | No. of selected clones per ORF and screen: D [1, 6]: D: 3

Yfix [compound 944]
No. of selected clones per ORF and screen [1, 3]: D: 4

ARF2455 (LRLRQFQLLCTLVLLMLVALFLHAFLRYLMTK; listed as Staphylococcus epidermidis)
Location of identified Immunogenic region [1, 5]: aa 1-22 | No. of selected clones per ORF and screen: D [1, 6]: D: 3

B1: ORF2673 (protein, listed as Staphylococcus epidermidis)
chain: MRYLKKVTIYISLLILVSGCGNGKETEIKQNFNKMLDMYPTKNLEDFYDKEGYRDEEFDKKDKGTWIVGSTMTIEPKGKYMESRGMFLYINRNTRTTKGYYYVRKTTDDSKGRLKDDEKRYPVKMEHNKIIPTKPIPNDKLKKEIENFKFFVQYGDFKNLKDYKDGDISYNPNVPSYSAKYQLSNNDYNVKQLRKRYDIPTNQAPKLLLKGDGDLKGSSIGSKSLEFTFIENKEENIFFSDGVQFTPSEDSES
No. of selected clones per ORF and screen: A [2]: A: 16, | No. of selected clones per ORF and screen: B [2]: B: 3 | Location of identified Immunogenic region [2]: aa 23-68

B2: ORF2694 (protein, listed as Staphylococcus epidermidis)
chain: MKHSSKIIVFVSFLILTIFIGGCGFINKEDSKEAEIKQNFNKTLSMYPTKNLEDFYDKEGYRDEEFDKDDKGTWIINSKMIVEPKGEEMEARGMVLRINRNTRTAKGNFIIKRITENNKGIPDVKDKKYPVKMEHNKIIPTKQIKDKKLKKEIENFKFFVQYGNFKNLKDYKDGEISYNPNVPSYSAQYQLNNYDNNVKQLRKRYDIPTNQAPKLLLKGTGDLKGSSVGYKHLEFTFVENKKENIYFTDSINFNPSRGN
No. of selected clones per ORF and screen: A [2]: A: 19, | No. of selected clones per ORF and screen: B [2]: B: 30 | Location of identified Immunogenic region [2]: aa 25-82

B3: ORF2695 (protein, listed as Staphylococcus epidermidis)
chain: MRYLKKVTIYISLLILTIFIGGCGFINKEDSKETEIKQNFNKMLNVYPTKNLEDFYDKEGFRDEEFDKGDKGTWIIRSEMTKQPKGKIMTSRGMVLYINRNTRTAKGYFLIDEIKDDNSGRPIENEKKYPVKMNHNKIFPTKPISDDKLKKEIENFKFFVQYGDFKNLKDYKDGEISYNPNVPSYSAQYQLNNNDNNVKQLRKRYDIPTNQAPKLLLKGDGDLKGSSVGSKNLEFTFVENKEENIFFTDAVQFTPSEDDES
No. of selected clones per ORF and screen: A [2]: A: 7 | Location of identified Immunogenic region [2]: aa 22-78

B4: ORF2671 (protein, listed as Staphylococcus epidermidis)
chain: VKHSKKLLLCISFLLITFFIGGCGFMNKDDGKETEIKQNFNKMLNVYPTKNLENFYDKEGYRDEEFDKDDKGTWIVHSKMVIEPKGKNMESRGMVLFINRNTRTSKGYFIVNEIEKDRKGRPINNKKKYPVKMKNNKIIPTKPISNDKLKKEIENFKFFVQYGNFKDIKNYKDGDISYNPNVPSYSAKYQLSNNEYNVQQLRKRYDIPTKKVPKLLLKGDGDLKGSSVGSKNLEFTFIENKEENIYFTDSVLFSPSEDNES
No. of selected clones per ORF and screen: A [2]: A: 44, | No. of selected clones per ORF and screen: B [2]: B: 14 | Location of identified Immunogenic region [2]: aa 23-68
